Results: paper PMC4154654 (PLoS Neglected Tropical Diseases, 2014)

Tested on: cAMP-activated Cl− secretion in T84 cells
Assay: Short-circuit current (Isc) measurement of forskolin-induced cAMP-activated Cl− secretion across T84 cell monolayers

Row | Structure (SMILES) | effect on cAMP-activated Cl− secretion elicited by forskolin (T84 monolayers, Isc) | IC50 (Homo sapiens, T84, read-out: IC50, inhibition of cAMP-activated Cl− secretion) | inhibition of cAMP-activated Cl− secretion at 200 µM (T84 monolayers, forskolin, 200 µM) | effect of CYP inhibition on the inhibition of cAMP-activated Cl− secretion (pretreatment with 1-aminobenzotriazole (1-ABT; 1 mM))
1 | O=C(O)c1ccc(/C=C2\SC(=S)N(c3cccc(C(F)(F)F)c3)C2=O)cc1 [CFTRinh-172] | completely abolished | – | – | –
2 | O=C(O)Cc1ccccc1Nc1c(Cl)cccc1Cl [diclofenac] | – | ~20 µM | almost complete inhibition | virtually no effect
